# Results of single-concentration screens

Source: ChEMBL document CHEMBL3988442, “University of Dundee, Small-Polar-MMV Screening Library” (2021).

Mtb glucose medium: 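Growth of Mycobacterium tuberculosis over 3 days (7H9 medium with glucose and tyloxapol); the read-out is not stated. Compounds at 50 µM. Higher reads as more growth inhibition (inferred: compounds with an IC50 in retests scored well above the rest). About 69,000 compounds were tested under these conditions; 1.1% (about 760) showed 50% or more at least once.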
Mtb cholesterol medium: 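Whole-cell growth test on Mycobacterium tuberculosis, read after 4 days in a medium based on cholesterol and the lipid DPPC; the read-out is not stated. Tested at 50 µM. Direction is inferred from retests: higher values go with more growth inhibition. About 69,000 compounds were tested under these conditions; 0.54% (about 370) showed 50% or more at least once.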

The filed quantity is “Percent Effect” (%).
How 0% and 100% were set is not recorded. Most values in the screen are low, and negative values occur.
This is part of a subset picked to be rich in strong results.
Two or more numbers in one place are separate tests of the same structure; such repeats can differ widely.
A dash means the value is not listed here; it may have been measured.

| SMILES | Mtb glucose medium | Mtb cholesterol medium |
|---|---|---|
| `Cc1csc(C2CCCCN2C(=O)COCc2nc(C)no2)n1` (stereo not shown) | - | -4.685% |
| `Cc1ccc(NC(=O)c2ncc(C(N)=O)cc2Cl)cc1F` | 78.71% | - |
| `O=C(NCCc1c[nH]c2ccccc12)C1(n2cnnn2)CCCCC1` | 56.36% | 71.95% |
| `C[S+]([O-])c1nncn1CC(=O)c1ccc(OC(F)F)cc1` (stereo not shown) | 5.842% & -36.96% | 15.89% |
| `O=C(NCC1COC2(CCOCC2)O1)c1csc(-c2cccc(Cl)c2)n1` (stereo not shown) | 50.12% | - |
| `CCCNC(=O)c1ccc(NC(=O)c2cccc(OCC)c2)cc1` | 50.51% | - |
| `CC1c2cccn2CCN1C(=O)CCc1nc(-c2ccccc2)no1` (stereo not shown) | -8.247% & -4.303% | - |
| `Cc1cccc(C)c1NC(=O)CC(CN1CCN(C)CC1)C(=O)O` (stereo not shown) | 86.76% & 77.94% | - |
| `COCCN(Cc1ccoc1)S(=O)(=O)c1ccc(OC)c(Cl)c1` | - | 4.064% |
| `Cc1cccc(OCCNC(=O)CN2CCCC2Cn2cncn2)c1` (stereo not shown) | 8.426% | - |
| `CN(Cc1nnc(C2CC2)o1)CC1CCCN1c1cccnn1` (stereo not shown) | -20.3% | - |
| `COc1cc(C(=O)NCCc2ccc(Cl)cc2)on1` | 38.42% & 45.59% | 37.2% |
| `CS(=O)(=O)Cc1ccccc1NCc1cc(Cl)ccc1Cl` | 33.16% | -5.745% |
| `CCOCc1nnc(NCc2cccc(C)c2)o1` | 8.667% | - |
| `CSc1ccc(C(=O)N2CCCC(Nc3ccc(F)cc3)C2)cc1` (stereo not shown) | - | 25.61% & 2.651% |
| `N#Cc1ccc(SCCOCCO)c(F)c1` | 18.81% | - |
| `Cc1cc(C(=O)N2CCN(c3nc4c(F)cccc4s3)CC2)no1` | - | -8.468% |
| `CCn1nc(C)c2nc(C(C)C)nc(NCCCO)c21` | 13.28% | - |
| `Cc1ccc(-c2cccc(N3CCC(NC4CCOCC4)CC3)c2)cc1` | 45.09% | 22.3% |
| `CC(C)c1noc(CN2CCN(C(=O)c3cccc(F)c3)CC2)n1` | 18.82% & -16.94% | - |
| `CCc1nnc2n1CCN(C(=O)CN(CC)CC)C2` | 102.8% | - |
| `CCNc1ncc(C(=O)N2CCOC(CCCc3ccccc3)C2)cn1` (stereo not shown) | 13.81% | 20.72% & 25.68% |
| `CCOC(=O)CSc1ccc(-c2nc(C)no2)cn1` | 27.81% | - |
| `Cc1nc(C2CCCN2C(=O)c2cc3c(s2)CCCC3)no1` (stereo not shown) | 3.538% | - |
| `Cc1ccsc1CN1CCc2nc3ccsc3c(=O)n2CC1.Cl` | 23.64% | -10.82% |
| `CCOc1ccc(CN2C(=O)CC(CC)(CC)C2=O)nc1` | 18.21% & 17.42% | 12.92% |
| `CN(Cc1ccco1)C(=O)CN1CCc2ccccc2C1` | 21.26% | 5.211% |
| `CC(=O)Nc1nc(COc2nc(C)no2)cs1` | -18.44% | -13.13% |
| `O=C(NCCCN1CCCC1=O)c1ccc(-n2ccc3ccccc32)s1` | 33.08% | -4.558% |
| `COC(C)c1cccc(NCc2cccc(O)c2)c1` (stereo not shown) | -12.51% | 9.74% |
| `COc1cc(Oc2ccc(C(N)=O)cn2)ccc1CN1CCCC1` | -17.84% | -7.559% |
| `CCN(CC(O)c1ccc(C)cc1)C(=O)NC(C)C` (stereo not shown) | -10.19% | -13.11% |
| `CN1CCCC1c1cccc(Cc2ccc(F)cc2)n1` (stereo not shown) | 24.23% | - |
| `OCC1CCN(Cc2cc3c(cc2Br)OCCO3)CC1` | 3.724% & 0.01411% | 18.83% |
| `Oc1ccccc1CN1CCCCCC1c1cccs1` (stereo not shown) | 4.686% | - |
| `O=S(=O)(NCCCN1CC=CC1)c1cncc(Cl)c1` | 12.31% | - |
| `Cc1cnc(NC(=O)C(C)Oc2ccc3c(c2)OCO3)s1` (stereo not shown) | 44.08% | - |
| `Cc1noc(C)c1C(=O)N1CCCC(c2cc(C(F)(F)F)[nH]n2)C1` (stereo not shown) | -8.819% & -28.3% | - |
| `COc1ccc(NCC2(O)CCNCC2)cc1OC` | 15.14% & -4.821% | - |
| `CNS(=O)(=O)c1cccc(CNc2ccc(C(F)(F)F)nn2)c1` | 3.734% | - |

Some entries from above, unchanged:

CCNc1ncc(C(=O)N2CCOC(CCCc3ccccc3)C2)cn1 (stereo not shown) gave Mtb glucose medium: 13.81%; Mtb cholesterol medium: 20.72% & 25.68%.
CN(Cc1nnc(C2CC2)o1)CC1CCCN1c1cccnn1 (stereo not shown) gave Mtb glucose medium: -20.3%.
O=C(NCCc1c[nH]c2ccccc12)C1(n2cnnn2)CCCCC1 gave Mtb glucose medium: 56.36%; Mtb cholesterol medium: 71.95%.
CC(C)c1noc(CN2CCN(C(=O)c3cccc(F)c3)CC2)n1 gave Mtb glucose medium: 18.82% & -16.94%.
Cc1ccc(NC(=O)c2ncc(C(N)=O)cc2Cl)cc1F gave Mtb glucose medium: 78.71%.